# Laboratory results taken from patent US10633366B2, “Antibacterial compounds” (AZIENDE CHIMICHE RIUNITE ANGELINI FRANCESCO A.C.R.A.F. …, priority 2016, dated 2020).
# Protein sequences, listed by entry. Tags and fused reporters are not part of them.
# UniProt P0C1S7, whole entry: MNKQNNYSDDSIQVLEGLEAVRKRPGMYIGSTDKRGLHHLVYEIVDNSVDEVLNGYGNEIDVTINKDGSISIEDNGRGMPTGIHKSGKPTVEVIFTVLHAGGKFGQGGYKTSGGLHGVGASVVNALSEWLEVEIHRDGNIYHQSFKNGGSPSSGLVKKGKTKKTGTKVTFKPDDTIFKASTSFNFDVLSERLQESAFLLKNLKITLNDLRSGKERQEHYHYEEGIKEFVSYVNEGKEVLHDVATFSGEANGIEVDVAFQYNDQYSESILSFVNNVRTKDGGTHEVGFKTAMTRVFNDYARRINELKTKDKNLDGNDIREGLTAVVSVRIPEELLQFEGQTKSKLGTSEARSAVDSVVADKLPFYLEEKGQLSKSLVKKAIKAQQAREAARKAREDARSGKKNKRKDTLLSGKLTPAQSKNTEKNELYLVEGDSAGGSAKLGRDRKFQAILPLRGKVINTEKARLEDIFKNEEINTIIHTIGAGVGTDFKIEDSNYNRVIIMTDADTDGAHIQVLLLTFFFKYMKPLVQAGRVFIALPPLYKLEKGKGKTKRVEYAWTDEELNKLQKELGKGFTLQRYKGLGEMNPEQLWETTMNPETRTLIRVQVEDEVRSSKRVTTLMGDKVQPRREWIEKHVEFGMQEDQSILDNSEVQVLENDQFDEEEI
# UniProt P0C1U9, whole entry: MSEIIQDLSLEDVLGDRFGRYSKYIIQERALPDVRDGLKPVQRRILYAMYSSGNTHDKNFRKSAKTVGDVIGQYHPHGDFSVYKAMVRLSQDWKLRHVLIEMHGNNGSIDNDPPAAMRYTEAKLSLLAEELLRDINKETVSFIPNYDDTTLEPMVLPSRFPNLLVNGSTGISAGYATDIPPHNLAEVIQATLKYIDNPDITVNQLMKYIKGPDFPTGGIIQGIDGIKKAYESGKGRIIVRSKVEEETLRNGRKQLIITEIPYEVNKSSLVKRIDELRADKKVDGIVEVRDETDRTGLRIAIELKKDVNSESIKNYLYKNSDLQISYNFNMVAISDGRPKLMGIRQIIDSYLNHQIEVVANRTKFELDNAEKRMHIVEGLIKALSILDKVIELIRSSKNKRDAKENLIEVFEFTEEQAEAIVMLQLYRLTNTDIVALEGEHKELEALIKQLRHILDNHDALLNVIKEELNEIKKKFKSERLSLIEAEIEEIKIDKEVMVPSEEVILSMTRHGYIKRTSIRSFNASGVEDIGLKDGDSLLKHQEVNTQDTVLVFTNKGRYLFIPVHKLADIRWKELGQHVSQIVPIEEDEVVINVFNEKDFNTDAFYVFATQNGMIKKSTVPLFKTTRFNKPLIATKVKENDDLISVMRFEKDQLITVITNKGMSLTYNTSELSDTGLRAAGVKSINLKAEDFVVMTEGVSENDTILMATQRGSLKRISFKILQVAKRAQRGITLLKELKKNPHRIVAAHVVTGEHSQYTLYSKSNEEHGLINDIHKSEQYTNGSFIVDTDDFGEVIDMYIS
# UniProt P0AES4, whole entry: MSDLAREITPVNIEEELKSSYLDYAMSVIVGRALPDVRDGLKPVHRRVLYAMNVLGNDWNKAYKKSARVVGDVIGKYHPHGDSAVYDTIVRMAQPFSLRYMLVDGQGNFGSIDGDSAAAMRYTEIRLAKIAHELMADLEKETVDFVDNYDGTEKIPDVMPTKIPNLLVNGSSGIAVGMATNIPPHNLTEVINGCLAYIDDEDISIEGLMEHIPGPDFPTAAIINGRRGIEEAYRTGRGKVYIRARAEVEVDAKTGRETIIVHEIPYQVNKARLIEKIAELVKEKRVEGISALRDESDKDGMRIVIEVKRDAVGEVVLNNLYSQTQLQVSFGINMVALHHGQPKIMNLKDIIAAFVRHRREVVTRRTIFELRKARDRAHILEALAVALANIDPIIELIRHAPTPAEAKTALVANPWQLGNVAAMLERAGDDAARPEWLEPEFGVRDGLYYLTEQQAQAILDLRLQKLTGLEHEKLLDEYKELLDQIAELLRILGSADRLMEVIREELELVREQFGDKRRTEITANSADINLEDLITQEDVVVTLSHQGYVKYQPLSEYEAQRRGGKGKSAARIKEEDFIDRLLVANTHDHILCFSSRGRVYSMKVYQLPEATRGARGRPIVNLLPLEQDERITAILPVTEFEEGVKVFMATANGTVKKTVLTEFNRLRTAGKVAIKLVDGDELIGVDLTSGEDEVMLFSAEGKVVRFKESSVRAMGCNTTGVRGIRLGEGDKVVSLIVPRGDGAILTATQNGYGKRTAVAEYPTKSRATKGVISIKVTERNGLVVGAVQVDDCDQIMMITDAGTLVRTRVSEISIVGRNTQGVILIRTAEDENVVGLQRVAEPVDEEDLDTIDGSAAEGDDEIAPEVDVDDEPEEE
# UniProt P0A0K8, whole entry: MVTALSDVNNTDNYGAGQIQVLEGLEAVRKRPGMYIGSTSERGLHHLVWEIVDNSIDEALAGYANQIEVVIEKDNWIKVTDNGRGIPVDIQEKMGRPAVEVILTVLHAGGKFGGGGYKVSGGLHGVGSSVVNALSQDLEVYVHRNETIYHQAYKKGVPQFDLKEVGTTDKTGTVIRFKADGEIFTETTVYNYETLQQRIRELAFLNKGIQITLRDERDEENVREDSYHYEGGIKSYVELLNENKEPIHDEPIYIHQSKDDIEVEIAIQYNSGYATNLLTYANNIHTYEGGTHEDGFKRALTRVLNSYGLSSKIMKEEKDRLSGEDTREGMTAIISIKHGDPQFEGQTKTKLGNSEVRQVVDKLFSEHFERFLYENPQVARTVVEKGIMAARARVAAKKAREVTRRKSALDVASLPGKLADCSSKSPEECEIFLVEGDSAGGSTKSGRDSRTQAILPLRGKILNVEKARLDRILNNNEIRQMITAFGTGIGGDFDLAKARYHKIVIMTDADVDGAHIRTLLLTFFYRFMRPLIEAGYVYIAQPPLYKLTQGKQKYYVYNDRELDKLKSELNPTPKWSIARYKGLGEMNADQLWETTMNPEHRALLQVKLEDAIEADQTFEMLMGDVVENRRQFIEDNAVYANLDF
# UniProt P20831, whole entry: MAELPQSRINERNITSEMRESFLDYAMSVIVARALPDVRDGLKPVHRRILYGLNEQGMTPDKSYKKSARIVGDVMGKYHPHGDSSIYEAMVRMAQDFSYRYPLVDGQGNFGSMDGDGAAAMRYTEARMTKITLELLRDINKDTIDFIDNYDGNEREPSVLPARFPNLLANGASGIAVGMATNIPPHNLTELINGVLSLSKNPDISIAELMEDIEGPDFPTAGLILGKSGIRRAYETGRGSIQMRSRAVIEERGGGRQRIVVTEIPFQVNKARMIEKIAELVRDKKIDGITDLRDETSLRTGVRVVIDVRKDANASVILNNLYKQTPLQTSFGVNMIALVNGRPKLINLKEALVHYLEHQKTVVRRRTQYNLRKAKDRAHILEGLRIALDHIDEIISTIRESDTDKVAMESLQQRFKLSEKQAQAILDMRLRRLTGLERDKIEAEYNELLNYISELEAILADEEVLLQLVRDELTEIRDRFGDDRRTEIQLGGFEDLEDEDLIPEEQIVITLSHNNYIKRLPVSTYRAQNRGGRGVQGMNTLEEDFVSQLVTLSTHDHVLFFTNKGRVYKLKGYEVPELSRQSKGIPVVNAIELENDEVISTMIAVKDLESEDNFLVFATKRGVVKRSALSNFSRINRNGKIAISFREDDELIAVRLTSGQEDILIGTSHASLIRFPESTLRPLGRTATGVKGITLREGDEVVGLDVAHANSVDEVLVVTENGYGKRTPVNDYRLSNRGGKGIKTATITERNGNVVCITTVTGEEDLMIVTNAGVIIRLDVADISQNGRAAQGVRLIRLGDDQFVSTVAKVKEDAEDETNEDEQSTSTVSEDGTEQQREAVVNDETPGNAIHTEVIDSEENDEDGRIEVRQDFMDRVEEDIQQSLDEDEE
# UniProt P0AFI2, whole entry: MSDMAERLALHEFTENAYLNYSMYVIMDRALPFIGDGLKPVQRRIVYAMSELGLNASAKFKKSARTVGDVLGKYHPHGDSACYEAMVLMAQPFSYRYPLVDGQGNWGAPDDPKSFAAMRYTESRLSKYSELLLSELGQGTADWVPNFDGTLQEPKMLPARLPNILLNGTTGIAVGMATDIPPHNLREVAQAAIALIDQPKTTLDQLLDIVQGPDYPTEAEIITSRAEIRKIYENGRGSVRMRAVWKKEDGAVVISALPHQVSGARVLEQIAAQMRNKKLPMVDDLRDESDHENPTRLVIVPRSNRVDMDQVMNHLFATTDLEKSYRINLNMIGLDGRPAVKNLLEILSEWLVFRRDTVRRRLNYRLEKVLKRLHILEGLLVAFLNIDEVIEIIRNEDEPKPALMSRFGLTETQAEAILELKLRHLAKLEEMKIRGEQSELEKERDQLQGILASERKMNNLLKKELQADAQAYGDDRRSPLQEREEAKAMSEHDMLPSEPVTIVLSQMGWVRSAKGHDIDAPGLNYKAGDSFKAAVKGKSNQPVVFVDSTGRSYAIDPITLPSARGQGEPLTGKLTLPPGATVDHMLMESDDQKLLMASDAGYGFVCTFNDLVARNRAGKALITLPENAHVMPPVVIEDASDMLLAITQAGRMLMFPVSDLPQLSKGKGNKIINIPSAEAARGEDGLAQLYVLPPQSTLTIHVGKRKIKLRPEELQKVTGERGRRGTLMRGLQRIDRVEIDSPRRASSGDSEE
# UniProt P20083, whole entry: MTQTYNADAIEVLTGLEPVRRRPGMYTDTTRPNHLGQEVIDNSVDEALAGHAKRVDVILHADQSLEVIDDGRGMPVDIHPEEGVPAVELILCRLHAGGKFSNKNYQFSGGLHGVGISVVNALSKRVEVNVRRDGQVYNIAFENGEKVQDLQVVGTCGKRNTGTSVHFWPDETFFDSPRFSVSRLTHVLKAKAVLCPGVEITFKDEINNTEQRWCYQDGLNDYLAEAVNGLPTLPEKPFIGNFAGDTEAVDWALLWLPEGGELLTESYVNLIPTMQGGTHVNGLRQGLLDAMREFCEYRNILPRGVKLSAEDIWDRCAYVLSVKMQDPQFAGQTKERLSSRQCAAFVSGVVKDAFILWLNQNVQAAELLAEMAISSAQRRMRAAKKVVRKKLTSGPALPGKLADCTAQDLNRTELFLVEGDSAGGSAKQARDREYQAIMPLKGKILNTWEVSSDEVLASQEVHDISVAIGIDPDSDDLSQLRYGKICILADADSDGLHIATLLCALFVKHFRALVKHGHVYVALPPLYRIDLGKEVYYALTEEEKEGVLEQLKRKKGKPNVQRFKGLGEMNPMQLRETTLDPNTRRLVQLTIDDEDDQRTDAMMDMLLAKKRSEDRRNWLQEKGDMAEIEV
# How the values were obtained:
# Type in all cases: biochemical
# [1] = target: S. aureus Topoisomerase IV (Staphylococcus aureus, UniProt P0C1S7+P0C1U9); test: Topoisomerase IV decatenation assay (S. aureus)
# E. coli DNA gyrase = E. coli DNA gyrase (Escherichia coli, UniProt P0AES4+P0AES6); test: DNA gyrase supercoiling assay (E. coli)
# S. aureus DNA gyrase = S. aureus DNA gyrase (Staphylococcus aureus, UniProt P0A0K8+P20831); test: DNA gyrase supercoiling assay (S. aureus)
# E. coli Topoisomerase IV = E. coli Topoisomerase IV (Escherichia coli, UniProt P0AFI2+P20083); test: Topoisomerase IV decatenation assay (E. coli)
# [2] = compound conc. 50 μM, percent of inhibition versus positive control, n/a = not active
# [3] = read-out: IC50 Topo IV, Table 3, eight half-log concentrations ranging from 0.1 to 300 μM
# [4] = read-out: IC50 DNA gyrase, Table 3, eight half-log concentrations ranging from 0.1 to 300 μM
structure (smiles),measurement,setting,value
O=C1COc2ncc(F)cc2N1C1CCN(CCc2cc3c(=O)oc4ccc(F)cc4c3[nH]2)CC1,% inhibition Topo IV,[1]; [2],50%
same,IC50,[1]; [3],690 nM
same,% inhibition DNA gyrase,E. coli DNA gyrase; [2],79%
same,IC50,E. coli DNA gyrase; [4],250 nM
same,% inhibition DNA gyrase,S. aureus DNA gyrase; [2],60%
same,IC50,S. aureus DNA gyrase; [4],490 nM
same,% inhibition Topo IV,E. coli Topoisomerase IV; [2],50%
same,IC50,E. coli Topoisomerase IV; [3],6.06 µM

# Only a part of the results on these compounds is given; other tests are left out.
